Assay: syncytia formation, GFP+ area, co-transfected HEK293T
Details: glycan lost; control: WT hACE2

Row | Substance | other: cell-cell fusion
1 | hACE2 (angiotensin-converting enzyme 2): N103A | decreases
2 | hACE2 (angiotensin-converting enzyme 2): N322A | increases
